Results published in paper PMC4942819 (Scientific Reports, 2016).

Tested on: DprE1
Assay: differential scanning calorimetry (DSC) of DprE1
Type: binding
Conditions: difference to the pure protein

Compound | ΔTm [°C]
C[C@H]1COC2(CCN(c3nc(=O)c4cc(C(F)(F)F)cc([N+](=O)[O-])c4s3)CC2)O1 [BTZ043] | 6.9
O=[N+]([O-])c1cc(C(F)(F)F)cc2c(=S)nc(N3CCC4(CC3)OCCO4)sc12 [SKLB-TB1001, 8-nitro-2-(1,4-dioxa-8-azaspiro[4.5]decan-8-yl)-6-(trifluoromethyl)-4H-benzo[e][1,3]thiazine-4-thione] | 8.0
